Results: patent publication US11598051B2, “Method for manufacturing a fibrous web” (Kemira Oyj, priority 2017, dated 2023)

Assay: Example 2 laboratory broke storage test: pH and redox measurements
[1] = broke, 50 mg/l as active agent, +45° C., closed, after 3 days storage time

## O=CCCCC=O [glutaraldehyde]
50 mg/l, 3 days of storage
  development of anaerobic fermentative conditions: effectively prevented development of anaerobic fermentative conditions
[1]
  pH: 7.4
  redox: 145 mV
